The record followed here is US20260217797A1.

Common to all, as to test: cell-based or functional assay
The target in assay [1] is SARS-CoV-2 Omicron (B.1.529) spike protein (on reporter virus particles) (SARS-CoV-2) (UniProt P0DTC2).
The target of assay [2] is SARS-CoV-2 Beta (B.1.351) spike protein (on reporter virus particles) (SARS-CoV-2) (UniProt P0DTC2).
The target in assay [3] is SARS-CoV-2 Delta (B.1.617.2) spike protein (on reporter virus particles) (SARS-CoV-2) (UniProt P0DTC2).

In turn, RGN10933 (antibody) displayed an Omicron PsV IC50 in assay [1] of 32.5 nM. The substance also had a Beta IC50 in assay [2] of 29 nM. In assay [3], this substance registered a Delta IC50 of 0.041 nM and a Delta PsV IC50 of 0.29 nM.
On to RGN10987 (antibody), for which the Omicron PsV IC50 in assay [1] was determined as 0.242 nM. The substance also registered a Delta PsV IC50 in assay [3] of 0.523 nM.
